{"source": "paper PMC12326976", "about": "(Antimicrobial Agents and Chemotherapy, 2025)", "key": {"H1N1 virus [1]": {"tested_on": "H1N1 virus", "experiment": "Drug-resistance testing by serial passage of H1N1", "details": "15 passages (P15) with 4H30 2.5, 5.0 and 10.0 μg/mL for every five passages; Fig. 3d"}, "H1N1 virus [2]": {"tested_on": "H1N1 virus", "details": "passages in the presence of zanamivir; cited from earlier work"}}, "note": "Where two headings read alike, the source gives them in different places.", "data": [{"smiles": "CC[C@H](C)[C@H](NC(=O)[C@H](C)NC(=O)CN)C(=O)N[C@@H](CS)C(=O)N[C@@H](Cc1c[nH]cn1)C(=O)N1CCC[C@H]1C(=O)N[C@H](C(=O)N[C@@H](Cc1ccccc1)C(=O)N[C@@H](CS)C(=O)N1CCC[C@H]1C(=O)N[C@@H](CCCNC(=N)N)C(=O)N[C@@H](CCCNC(=N)N)C(=O)N[C@@H](Cc1ccc(O)cc1)C(=O)N[C@@H](CCCCN)C(=O)N[C@@H](CCC(N)=O)C(=O)N[C@H](C(=O)NCC(=O)N[C@H](C(=O)N[C@@H](CS)C(=O)NCC(=O)N[C@@H](CC(C)C)C(=O)N1CCC[C@H]1C(=O)NCC(=O)N[C@H](C(=O)N[C@@H](CCCCN)C(=O)N[C@@H](CS)C(=O)N[C@@H](CS)C(=O)N[C@@H](CCCCN)C(=O)N[C@@H](CCCCN)C(=O)N1CCC[C@H]1C(=O)NCCCC[C@H](NC(=O)[C@@H]1CCCN1C(=O)[C@H](CCCCN)NC(=O)[C@H](CCCCN)NC(=O)[C@H](CS)NC(=O)[C@H](CS)NC(=O)[C@H](CCCCN)NC(=O)[C@@H](NC(=O)CNC(=O)[C@@H]1CCCN1C(=O)[C@H](CC(C)C)NC(=O)CNC(=O)[C@H](CS)NC(=O)[C@@H](NC(=O)CNC(=O)[C@@H](NC(=O)[C@H](CCC(N)=O)NC(=O)[C@H](CCCCN)NC(=O)[C@H](Cc1ccc(O)cc1)NC(=O)[C@H](CCCNC(=N)N)NC(=O)[C@H](CCCNC(=N)N)NC(=O)[C@@H]1CCCN1C(=O)[C@H](CS)NC(=O)[C@H](Cc1ccccc1)NC(=O)[C@@H](NC(=O)[C@@H]1CCCN1C(=O)[C@H](Cc1c[nH]cn1)NC(=O)[C@H](CS)NC(=O)[C@@H](NC(=O)[C@H](C)NC(=O)CN)[C@@H](C)CC)C(C)C)[C@@H](C)CC)[C@@H](C)O)[C@@H](C)O)C(=O)NCCCC[C@H](NC(=O)[C@H](CCCCNC(=O)[C@@H]1CCCN1C(=O)[C@H](CCCCN)NC(=O)[C@H](CCCCN)NC(=O)[C@H](CS)NC(=O)[C@H](CS)NC(=O)[C@H](CCCCN)NC(=O)[C@@H](NC(=O)CNC(=O)[C@@H]1CCCN1C(=O)[C@H](CC(C)C)NC(=O)CNC(=O)[C@H](CS)NC(=O)[C@@H](NC(=O)CNC(=O)[C@@H](NC(=O)[C@H](CCC(N)=O)NC(=O)[C@H](CCCCN)NC(=O)[C@H](Cc1ccc(O)cc1)NC(=O)[C@H](CCCNC(=N)N)NC(=O)[C@H](CCCNC(=N)N)NC(=O)[C@@H]1CCCN1C(=O)[C@H](CS)NC(=O)[C@H](Cc1ccccc1)NC(=O)[C@@H](NC(=O)[C@@H]1CCCN1C(=O)[C@H](Cc1c[nH]cn1)NC(=O)[C@H](CS)NC(=O)[C@@H](NC(=O)[C@H](C)NC(=O)CN)[C@@H](C)CC)C(C)C)[C@@H](C)CC)[C@@H](C)O)[C@@H](C)O)NC(=O)[C@@H]1CCCN1C(=O)[C@H](CCCCN)NC(=O)[C@H](CCCCN)NC(=O)[C@H](CS)NC(=O)[C@H](CS)NC(=O)[C@H](CCCCN)NC(=O)[C@@H](NC(=O)CNC(=O)[C@@H]1CCCN1C(=O)[C@H](CC(C)C)NC(=O)CNC(=O)[C@H](CS)NC(=O)[C@@H](NC(=O)CNC(=O)[C@@H](NC(=O)[C@H](CCC(N)=O)NC(=O)[C@H](CCCCN)NC(=O)[C@H](Cc1ccc(O)cc1)NC(=O)[C@H](CCCNC(=N)N)NC(=O)[C@H](CCCNC(=N)N)NC(=O)[C@@H]1CCCN1C(=O)[C@H](CS)NC(=O)[C@H](Cc1ccccc1)NC(=O)[C@@H](NC(=O)[C@@H]1CCCN1C(=O)[C@H](Cc1c[nH]cn1)NC(=O)[C@H](CS)NC(=O)[C@@H](NC(=O)[C@H](C)NC(=O)CN)[C@@H](C)CC)C(C)C)[C@@H](C)CC)[C@@H](C)O)[C@@H](C)O)C(=O)O)[C@@H](C)O)[C@@H](C)O)[C@@H](C)CC)C(C)C", "note": "[4H30]", "values": [{"measurement": "drug-resistant H1N1 virus after passaging in presence of drug", "setting": "H1N1 virus [1]", "value": "no drug-resistant H1N1 virus was detected"}]}, {"smiles": "CC(=O)N[C@H]1[C@H]([C@H](O)[C@H](O)CO)OC(C(=O)O)=C[C@@H]1N=C(N)N", "note": "[zanamivir, reference compound]", "values": [{"measurement": "drug-resistant H1N1 virus after passaging in presence of drug", "setting": "H1N1 virus [2]", "value": "zanamivir-resistant H1N1 virus could be generated after four passages"}]}]}
